A mixed list of measured activities; the numbers were collected in NIAID ChemDB.

All rows: enzyme or target tests; agent: HIV-1; protein: Reverse transcriptase

Blank or dashed fields: not listed here.

smiles,read by,strain,read-out,mutations,result
Cc1ccc2c(C)cc(C)c(-n3c(SCC(=O)Nc4ccc(S(N)(=O)=O)cc4C)nnc3C(F)F)c2n1,nucleotide incorporation / radiometric,,IC50,RT-Y188L,>0.1 µM
CC(C)(C)c1ccc(-n2nnnc2SCC(=O)Nc2ccc(C(=O)Nc3ccc(N4CCOCC4)cc3)cc2Cl)c(Cl)c1,PicoGreen / fluorescence,,IC50,RT-K103 Y181C,<1 µM
Cc1ccc2ccccc2c1-n1c(Br)nnc1SC(C)C(=O)Nc1ccc(S(N)(=O)=O)cc1Cl,nucleotide incorporation / radiometric,,IC50,RT-Y181C,0.05–0.1 µM
CCN1c2ncc(CCOc3ccc(-c4cccc[n+]4[O-])cc3C)cc2C(=O)N(C)c2cccnc21,nucleotide incorporation / radiometric,IIIB,IC50,RT-K103N Y181C,<0.05 µM
COc1ccc2c(C)ccc(-n3c(Br)nnc3SCC(=O)Nc3ccc(C(=O)O)cc3Cl)c2c1,nucleotide incorporation / radiometric,,IC50,,<0.05 µM
CC(C)(C#Cc1ccc(NC(=O)CSc2nnnn2-c2ccc(C(C)(C)C)cc2Cl)c(Cl)c1)OCC(=O)NNC(N)=O,PicoGreen / fluorescence,,IC50,RT-K103 Y181C,<1 µM
CCN1c2ncc(CCOc3ccc(CC(=O)NN)c4ccccc34)cc2C(=O)N(C)c2ccc(Cl)nc21,nucleotide incorporation / radiometric,WT,IC50,,<0.1 µM
CC(C)(C#Cc1ccc(NC(=O)CSc2nnnn2-c2ccc(C(C)(C)C)cc2Cl)c(Cl)c1)OCC(=O)Nc1ccc(/C=C/C(=O)O)cc1,PicoGreen / fluorescence,,IC50,RT-K103 Y181C,<1 µM
CCN1c2ncc(CCOc3ccc(S(=O)(=O)c4cccc(CC(=O)O)c4)cc3C)cc2C(=O)N(C)c2cccnc21,nucleotide incorporation / radiometric,IIIB,IC50,RT-K103N Y181C,<0.05 µM
CC(C)(C)c1ccc(-n2nnnc2SCC(=O)Nc2ccc(C(=O)NC3CCN(Cc4ccccc4)CC3)cc2Cl)c(Cl)c1,PicoGreen / fluorescence,WT,IC50,,<1 µM
CCN1c2ncc(CCOc3ccc(C(=O)Nc4ccc[n+]([O-])c4)cc3C)cc2C(=O)N(C)c2cccnc21,nucleotide incorporation / radiometric,IIIB,IC50,RT-K103N Y181C,<0.05 µM
CCN1c2ncc(CCOc3ccc(C(=O)O)c4c3CCN(C(=O)N(C)C)C4)cc2C(=O)N(C)c2cccnc21,nucleotide incorporation / radiometric,,IC50,RT-V106A,0.1–1 µM
Cc1cc(NC(=O)COc2ccc(NC(=O)CSc3nnnn3-c3ccc(C(C)(C)C)cc3Cl)c(Cl)c2)no1,PicoGreen / fluorescence,,IC50,RT-K103 Y181C,<1 µM
CCN1c2ncc(CCOc3ccc(/C=C(\C)C(=O)O)c4ccccc34)cc2C(=O)Nc2c(C)ccnc21,nucleotide incorporation / radiometric,,IC50,RT-V106A,0.1–1 µM
CCc1ccc(-n2c(SCC(=O)Nc3ccc(C(=O)O)cc3Cl)nnc2C(F)(F)F)c2ccccc12,nucleotide incorporation / radiometric,,IC50,RT-Y188L,>0.1 µM
CC(C)(C)c1ccc(-n2nnnc2SCC(=O)Nc2ccc(OCC(=O)Nc3cccc(C(=O)O)c3)cc2Cl)c(Cl)c1,PicoGreen / fluorescence,WT,IC50,,<1 µM
Cc1nnc2c3ccccc3c(N3CCc4ncccc4C3)nn12,RT activity / fluorescence,98US_MSC5016,IC50,,2.01 µM
CCN1c2ncc(CCOc3ccc(/C=C(\C)C(=O)O)c4ccccc34)cc2C(=O)N(C)c2ccc(F)nc21,nucleotide incorporation / radiometric,,IC50,RT-K103N Y181C,0.1–1 µM
CC(C)(C)c1ccc(-n2nnnc2SCC(=O)Nc2ccc(NC(=O)Cc3ccccc3C(F)(F)F)cc2Cl)c(Cl)c1,PicoGreen / fluorescence,WT,IC50,,<1 µM
CCN1c2ncc(CCOc3ccc(C(=O)c4ccc(C(=O)O)cc4)cc3C)cc2C(=O)N(C)c2cccnc21,nucleotide incorporation / radiometric,IIIB,IC50,,<0.05 µM
CC(C)(C#Cc1ccc(NC(=O)CSc2nnnn2-c2ccc(C3CC3)cc2Cl)c(Cl)c1)OCCN1CCC(O)CC1,PicoGreen / fluorescence,WT,IC50,,<1 µM
CCN1c2ncc(CCOc3ccc(-c4ccc(C)[n+]([O-])c4C)cc3C)cc2C(=O)N(C)c2cccnc21,nucleotide incorporation / radiometric,IIIB,IC50,,<0.05 µM
CCc1cc(C2CC2)ccc1-n1c(Br)nnc1SCC(=O)Nc1ccc(C(=O)O)cc1Cl,nucleotide incorporation / radiometric,,IC50,,<0.05 µM
CCN1c2ncc(CCOc3ccc(-n4nc(C(=O)O)cc4C)cc3C)cc2C(=O)N(C)c2cccnc21,nucleotide incorporation / radiometric,IIIB,IC50,,<0.05 µM
NS(=O)(=O)c1ccc(NC(=O)CSc2nnc(Br)n2-c2ccc(F)c3ccccc23)c(Cl)c1,nucleotide incorporation / radiometric,,IC50,RT-Y181C,<0.05 µM
FC(F)(F)Cc1nnc2c3ccccc3c(N3CCc4ccccc4C3)nn12,RT activity / fluorescence,KER2008,IC90,,2.54 µM
CCN1c2ncc(CCOc3ccc(C(=O)O)c4c3CCC4)cc2C(=O)N(C)c2cccnc21,nucleotide incorporation / radiometric,,IC50,RT-K103N Y181C,0.1–1 µM
CC(=O)Nc1ccc2c(c1)CN(c1nn3c(C4CC4)nnc3c3ccccc13)CC2,RT activity / fluorescence,IIIB,IC90,,0.3 µM
CCN1c2ncc(CCOc3ccc(-c4cc[n+]([O-])cc4)cc3)cc2C(=O)N(C)c2cccnc21,nucleotide incorporation / radiometric,IIIB,IC50,RT-K103N Y181C,<0.05 µM
CN(C)CCCC(=O)NC(C)(C)C#Cc1ccc(NC(=O)CSc2nnnn2-c2ccc(C3CC3)cc2Cl)c(Cl)c1F,PicoGreen / fluorescence,WT,IC50,,<1 µM
CCN1c2ncc(CCOc3ccc(C(=O)O)c4ccccc34)cc2C(=O)N(C)c2ccc(C)nc21,nucleotide incorporation / radiometric,WT,IC50,,<0.1 µM
CC(C)(C)c1ccc(-n2nnnc2SCC(=O)Nc2ccc(C(=O)NCCc3ccc(O)cc3)cc2Cl)c(Cl)c1,PicoGreen / fluorescence,WT,IC50,,<1 µM
CCc1ccc(-n2c(Br)nnc2SCC(=O)Nc2ccc(C(=O)NCCN3CCCC3)cc2Cl)c2ccccc12,nucleotide incorporation / radiometric,,IC50,,<0.05 µM
CC(C)(C)c1ccc(-n2nnnc2SCC(=O)Nc2ccc(NC(=O)Cc3c(Cl)cccc3Cl)cc2Cl)c(Cl)c1,PicoGreen / fluorescence,WT,IC50,,<1 µM
COc1ccc2c(c1)CCN(c1nn3c(C)nnc3c3ccccc13)C2,RT activity / fluorescence,KER2008,IC50,,5.18 µM
CC(C)(COc1ccc(NC(=O)CSc2nnnn2-c2ccc(C3CC3)cc2Cl)c(Cl)c1)C(=O)O,PicoGreen / fluorescence,WT,IC50,,<1 µM
CCN1c2ncc(CCOc3ccc(NC(=O)NCC(=O)O)cc3C)cc2C(=O)N(C)c2cccnc21,nucleotide incorporation / radiometric,IIIB,IC50,,<0.05 µM
O=C(O)Cc1ccc(-c2ccc(NC(=O)CSc3nnnn3-c3ccc(C4CC4)cc3Cl)c(Br)c2)cc1,PicoGreen / fluorescence,WT,IC50,,<1 µM
CCc1cc(CCc2nc3ccccc3o2)c(=O)[nH]c1C,nucleotide incorporation,,IC50,RT-Y188H,0.7722 µM

The first 4 rows once more:

Cc1ccc2c(C)cc(C)c(-n3c(SCC(=O)Nc4ccc(S(N)(=O)=O)cc4C)nnc3C(F)F)c2n1 ; read by: nucleotide incorporation / radiometric ; read-out: IC50 ; mutations: RT-Y188L ; result: >0.1 µM
CC(C)(C)c1ccc(-n2nnnc2SCC(=O)Nc2ccc(C(=O)Nc3ccc(N4CCOCC4)cc3)cc2Cl)c(Cl)c1 ; read by: PicoGreen / fluorescence ; read-out: IC50 ; mutations: RT-K103 Y181C ; result: <1 µM
Cc1ccc2ccccc2c1-n1c(Br)nnc1SC(C)C(=O)Nc1ccc(S(N)(=O)=O)cc1Cl ; read by: nucleotide incorporation / radiometric ; read-out: IC50 ; mutations: RT-Y181C ; result: 0.05–0.1 µM
CCN1c2ncc(CCOc3ccc(-c4cccc[n+]4[O-])cc3C)cc2C(=O)N(C)c2cccnc21 ; read by: nucleotide incorporation / radiometric ; strain: IIIB ; read-out: IC50 ; mutations: RT-K103N Y181C ; result: <0.05 µM

ICn is the concentration giving n% inhibition. a–b is a range or a potency band. Rows are shuffled and stem from different studies.